Reference: PubChem BioAssay AID504761 (Drosophila RNAi Screening Center, 2011)
The deposit covers about 22,000 reagents; below is an unselected part of those that have a named target and a result. Over the whole deposit, 116 (0.52%) were called active. 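Calls depend on retest data that are not deposited; infection was ranked per plate without normalising between plates; the unit of the infection score is not given.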 Unmarked entries are inactive. The numbers tell different reagents against one gene apart. Not all columns of the deposit are shown. Reagent sequences are not shown. Not given: the amount of reagent, the time to read-out.

Purpose: 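Fly genes whose silencing reduces dengue virus type 2 infection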 (primary screen)
System: D.Mel-2 cells from Drosophila
Reagent: long dsRNA against Drosophila genes
Treatment: infection with dengue virus type 2; dose and infection time not stated
Measurement: 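Cells stained for dengue envelope protein and imaged; percent of infected cells per well on duplicate plates, ranked by infection, with stained nuclei counted for cell number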
Direction: infection score: higher = more virus-infected cells
Active means: 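Very low infection ranking in both replicate wells (chance probability at most 0.065), then a retest showing infection dropped 1.5-fold or more at p below 0.05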
Calls: active = confirmed: knock-down lowers infection; inactive = not picked or not confirmed

{"predicted target": "CG32022", "reagent": 1, "infection score, replicate 1": 0.73}
{"predicted target": "CG11570", "reagent": 1, "infection score, replicate 1": 1.92}
{"predicted target": "CG3009", "reagent": 1, "infection score, replicate 1": 2.05}
{"predicted target": "CG3009", "reagent": 2, "infection score, replicate 1": 15.3}
{"predicted target": "CG30103", "reagent": 1, "infection score, replicate 1": 21.8}
{"predicted target": "CG30103", "reagent": 2, "infection score, replicate 1": 13.6}
{"predicted target": "CG8916", "reagent": 1, "infection score, replicate 1": 2.86}
{"predicted target": "CG17821", "reagent": 1, "infection score, replicate 1": 3.17}

Next part, starting with the last 2 of the part before.
{"predicted target": "CG8916", "reagent": 1, "infection score, replicate 1": 2.86}
{"predicted target": "CG17821", "reagent": 1, "infection score, replicate 1": 3.17}
{"predicted target": "Grx1t (Glutaredoxin 1, testis-specific)", "reagent": 1, "infection score, replicate 1": 5.25}
{"predicted target": "Grx1t (Glutaredoxin 1, testis-specific)", "reagent": 2, "infection score, replicate 1": 9.9}
{"predicted target": "CG42322", "reagent": 1, "infection score, replicate 1": 3.87}
{"predicted target": "CG42322", "reagent": 2, "infection score, replicate 1": 7.87}
{"predicted target": "CG42322", "reagent": 3, "infection score, replicate 1": 2.94}
